# Measurements as given in patent US6602861B1, “Acylated phospholipid drugs” (Research Corporation Technologies, Inc., priority 1992, dated 2003).
# Where two headings read alike, the source gives them in different places.
# What was measured:
# [1] = system: HIV; details: syncytial cell assay
# [2] = system: HIV (S5G7, subclone of HTLVIIIB); details: reverse transcriptase assay
substance,measurement,setting,value
"1,2-(di-12-methoxydodecanoyl)-sn-3-phosphatidylcholine [L-AC2]",Therapeutic Index MT4 cells (TC50/IC50),[1],280
same,Therapeutic Index PBMC (TC50/IC50),[2],37
same,Therapeutic Index PBMC (TC50/IC50),[2]; listed as AC2,31
